Test results published in patent US9909086B2, “Green glycine betaine derivative compounds and compositions containing same” (priority 2012, dated 2018).

Experiments:
[1] = Cleaning performance, time to remove interior soil
[2] = Cleaning performance, time to remove greasy kitchen soil

SMILES | Cleaning Performance (time to remove soils), Interior ([1]; surfactant conc. 1 % (w/w)) | Cleaning Performance (time to remove soils), Interior ([1]; surfactant conc. 3 % (w/w)) | Cleaning Performance (time to remove soils), Greasy Kitchen ([2]; surfactant conc. 1 % (w/w)) | Cleaning Performance (time to remove soils), Greasy Kitchen ([2]; surfactant conc. 3 % (w/w))
CCCCCCCC/C=C\CCCCCCCCNC(=O)C[N+](C)(C)C.CS(=O)(=O)[O-] [GB Oleic amide, (Z)-betainyl amino octadec-9-ene methane sulfonate] | 10 s | 10 s | 15 s | 15 s
CCCCCCCCCCCCCCCCCCNC(=O)C[N+](C)(C)C.CS(=O)(=O)[O-] [GB Stearic amide, Betainyl amino octadecane methane sulfonate] | 10 s | 10 s | 10 s | 10 s
